Results of unrelated studies side by side (data: NIAID ChemDB).

Common to all: whole-cell or culture tests; agent: Hepatitis C virus; endpoint: inhibition

An empty or dashed field is not shown.

| compound | strain | mutations | cell line | read by | conditions | tested at | result |
|---|---|---|---|---|---|---|---|
| CC1(C)CC[C@@]2(C(=O)NCc3cn(CC(CO)(Cn4cc(CNC(=O)[C@]56CCC(C)(C)CC5C5=CCC7[C@@]8(C)CC[C@H](O)C(C)(C)C8CC[C@@]7(C)[C@]5(C)C[C@H]6O)nn4)Cn4cc[n+](CNC(=O)[C@]56CCC(C)(C)CC5C5=CCC7[C@@]8(C)CC[C@H](O)C(C)(C)C8CC[C@@]7(C)[C@]5(C)C[C@H]6O)n4)nn3)C(C1)C1=CCC3[C@@]4(C)CC[C@H](O)C(C)(C)C4CC[C@@]3(C)[C@]1(C)C[C@H]2O | - | - | Huh7 | luciferase / entry | - | 1 µM | 45.4% |
| O=C1N/C(=N\c2nnc(-c3ccc(Cl)cc3)s2)S/C1=C\c1ccc(Cl)cc1Cl | - | - | Huh7/Rep-Feo1b | MTS | - | 100 µM | 0% |
| COC(=O)C1=CO[C@@H](O[C@@H]2O[C@H](CO)[C@@H](O)[C@H](O)[C@H]2O)[C@@H]2[C@@H](C)[C@@H](O)C[C@H]12 | - | - | - | entry | - | 20 µg/mL | 0% |
| CC1(C)CC[C@@]2(C(=O)NCc3cn(CCOCCn4cc(CNC(=O)[C@]56CCC(C)(C)CC5C5=CCC7[C@@]8(C)CC[C@H](O)C(C)(C)C8CC[C@@]7(C)[C@]5(C)C[C@H]6O)nn4)nn3)C(C1)C1=CCC3[C@@]4(C)CC[C@H](O)C(C)(C)C4CC[C@@]3(C)[C@]1(C)C[C@H]2O | - | - | Huh7 | luciferase / entry | - | 1 µM | 70.6% |
| CCN1CCC(C(=O)Nc2ccc(Oc3ccccc3F)cc2)CC1 | JFH-1 | - | Huh7 | PCR | - | 5 µM | ≥40% |
| CC1(C)CC[C@]2(C(=O)O)[C@H](O)C[C@]3(C)C(=CC[C@@H]4[C@@]5(C)CC[C@H](O)C(C)(C)[C@@H]5CC[C@]43C)[C@@H]2C1 | - | - | Huh7 | luciferase / entry | - | 5 µM | 77.7% |
| O=C(N[C@@H](C(=O)N1CCC[C@H]1C(=O)Nc1nc(-c2ccccc2)cs1)c1ccccc1)C1CC1 | genotype 1b | - | Con-1 | luciferase | - | 0.0564 µM | 90% |
| O=C(/C=C/c1ccc(O)cc1)OCC1=C[C@@H](O)[C@@H]2C=CO[C@@H](O)[C@H]12 | - | - | - | entry | - | 20 µg/mL | 56.6% |
| CC1(C)CC[C@@]2(C(=O)NCCOCCOCCOCCNC(=O)[C@]34CCC(C)(C)CC3C3=CCC5[C@@]6(C)CC[C@H](O)C(C)(C)C6CC[C@@]5(C)[C@]3(C)C[C@H]4O)C(C1)C1=CCC3[C@@]4(C)CC[C@H](O)C(C)(C)C4CC[C@@]3(C)[C@]1(C)C[C@H]2O | - | - | Huh7 | luciferase / entry | - | 5 µM | 84.1% |
| CC1(C)CC[C@]2(C(=O)O)CC[C@]3(C)C(=CC[C@@H]4[C@@]5(C)CC[C@H](O)C(C)(C)[C@@H]5CC[C@]43C)[C@@H]2C1 | - | - | Huh7 | luciferase / entry | pseudotyped | 1 µM | 10.6% |
| O=C(Nc1cccc(-c2cccc(F)c2)c1)C1CCN(Cc2cccc(O)c2)CC1 | JFH-1 | - | Huh7 | PCR | - | 15 µM | ≥40% |
| CC1(C)CC[C@@]2(C(=O)NCc3cn(CCOCCOCCOCCn4cc(CNC(=O)[C@]56CCC(C)(C)CC5C5=CCC7[C@@]8(C)CC[C@H](O)C(C)(C)C8CC[C@@]7(C)[C@]5(C)C[C@H]6O)nn4)nn3)C(C1)C1=CCC3[C@@]4(C)CC[C@H](O)C(C)(C)C4CC[C@@]3(C)[C@]1(C)C[C@H]2O | - | - | Huh7 | luciferase / entry | - | 5 µM | 91.9% |
| O=C(Nc1ccc(Oc2ccccc2F)cc1)C1CCN(Cc2cccc3c2OCO3)CC1 | JFH-1 | - | Huh7 | PCR | - | 5 µM | ≥40% |
| CC1(C)CC[C@@]2(C(=O)NCc3cn(Cc4ccccc4)nn3)C(C1)C1=CCC3[C@@]4(C)CC[C@H](O)C(C)(C)C4CC[C@@]3(C)[C@]1(C)C[C@H]2O | - | - | Huh7 | luciferase / entry | - | 1 µM | 2.2% |
| CCn1cc(CN2CCC(C(=O)Nc3ccc(Oc4ccccc4F)cc3)CC2)cn1 | JFH-1 | - | Huh7 | PCR | - | 5 µM | ≥40% |
| O=C(/C=C/c1ccc(O)cc1)OCC1=C[C@@H](O)[C@@H]2C=CO[C@@H](OC3O[C@H](CO)[C@@H](O)[C@H](O)[C@H]3O)[C@H]12 | - | - | - | entry | - | 20 µg/mL | 0% |
| CC(=O)OC[C@]12[C@H](OC(C)=O)[C@H](OCc3ccccc3)[C@@H]3[C@@H](OC(C)=O)[C@@]14O[C@@]3(C)COC(=O)c1cccnc1C(C)C(C)C(=O)O[C@@H]([C@H](OC(C)=O)[C@@H]2OC(C)=O)[C@]4(C)O | Subgenomic replicon JFH-1 | - | Huh7.5 | luciferase | - | 50 µM | 100% |
| COc1cc(Cn2cc(CNC(=O)[C@]34CCC(C)(C)CC3C3=CCC5[C@@]6(C)CC[C@H](O)C(C)(C)C6CC[C@@]5(C)[C@]3(C)C[C@H]4O)nn2)c(OC)cc1Cn1cc(CNC(=O)[C@]23CCC(C)(C)CC2C2=CCC4[C@@]5(C)CC[C@H](O)C(C)(C)C5CC[C@@]4(C)[C@]2(C)C[C@H]3O)nn1 | - | - | Huh7 | luciferase / entry | - | 5 µM | 83.5% |
| COc1cc([C@H]2O[C@@H](c3cc(OC)c4c(c3)OCO4)[C@@H](C)[C@@H]2C)cc2c1OCO2 | Subgenomic replicon S52 | P1220S D1430H S2204I | Huh7.5 | luciferase | - | 25 µM | 86% |
| COC(=O)C1=CO[C@@H](O)[C@@H]2[C@H](C)[C@@H](O)C[C@H]12 | - | - | - | entry | - | 20 µg/mL | 0.4% |
| CC1(C)CC[C@@]2(C(=O)NCCCCCCNC(=O)[C@]34CCC(C)(C)CC3C3=CCC5[C@@]6(C)CC[C@H](O)C(C)(C)C6CC[C@@]5(C)[C@]3(C)C[C@H]4O)C(C1)C1=CCC3[C@@]4(C)CC[C@H](O)C(C)(C)C4CC[C@@]3(C)[C@]1(C)C[C@H]2O | - | - | Huh7 | luciferase / entry | - | 1 µM | 61.7% |

The last 3 rows once more:

{"compound": "COc1cc([C@H]2O[C@@H](c3cc(OC)c4c(c3)OCO4)[C@@H](C)[C@@H]2C)cc2c1OCO2", "strain": "Subgenomic replicon S52", "mutations": "P1220S D1430H S2204I", "cell line": "Huh7.5", "read by": "luciferase", "tested at": "25 µM", "result": "86%"}
{"compound": "COC(=O)C1=CO[C@@H](O)[C@@H]2[C@H](C)[C@@H](O)C[C@H]12", "read by": "entry", "tested at": "20 µg/mL", "result": "0.4%"}
{"compound": "CC1(C)CC[C@@]2(C(=O)NCCCCCCNC(=O)[C@]34CCC(C)(C)CC3C3=CCC5[C@@]6(C)CC[C@H](O)C(C)(C)C6CC[C@@]5(C)[C@]3(C)C[C@H]4O)C(C1)C1=CCC3[C@@]4(C)CC[C@H](O)C(C)(C)C4CC[C@@]3(C)[C@]1(C)C[C@H]2O", "cell line": "Huh7", "read by": "luciferase / entry", "tested at": "1 µM", "result": "61.7%"}

Inhibition is in % at the dose shown (toxicity tests: loss of growth or viability). Rows are shuffled and stem from different studies.